Share of PSTVd loop 15 variants by leaf site

The pool varies loop 15 of the PSTVd intermediate strain in the pattern GGAAACCGNNNNNNC; wild type is GGAAACCGCUACUAC (upper and lower strand joined, each 5' to 3', the first 7 letters being the upper strand, closing pairs included).

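Three N. benthamiana plants were inoculated with the whole mutant pool. Progeny were sequenced from the inoculated region (day 5), the margin of the inoculated leaf (day 10) and systemic leaves (day 12).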

Values are reads per thousand in the sample; higher means more abundant, 0 means not found.
Each site shows the three plants.
"Pool" is the share in the plasmid pool used as inoculum, on the same scale.
The inoculated region was read from the minus strand, the other sites from the plus strand.

sequence	pool	inoculated region	leaf margin	systemic leaves
GGAAACCGGCGCUAC	0.256	0.147 0.145 0.0571	0 0 0.0401	0 0 0
GGAAACCGAGAUCGC	0.160	0.246 0.0321 0.0381	0 0 0	0 0 0
GGAAACCGCAAGUCC	0.256	0.246 0.225 0.381	0.146 0.0445 0.100	0.0483 0.0303 0.0684
GGAAACCGUCGACAC	0.112	0.131 0.129 0.0571	0.0162 0 0	0 0 0
GGAAACCGCAACGGC	0.256	0.344 0.193 0.324	0.0323 0 0	0.0161 0 0
GGAAACCGUGAGCGC	0.192	0.0819 0.0643 0.0762	0 0.0223 0	0 0 0
GGAAACCGCCGUGAC	0.352	0.131 0.112 0.190	0 0 0.0200	0.0161 0 0
GGAAACCGCGCGGAC	0.240	0.213 0.241 0.305	0.0647 0.0445 0.120	0.0161 0 0
GGAAACCGUAGGUGC	0.240	0.311 0.289 0.362	0.146 0.0668 0.100	0.0483 0 0
GGAAACCGCUGAAUC	0.272	0.115 0.0964 0.114	0 0 0	0.0161 0 0.0228
GGAAACCGCGAACAC	0.272	0.475 0.434 0.514	0.0647 0.0668 0.160	0.0805 0.121 0.0912
GGAAACCGGACAGUC	0.192	0.115 0.0321 0.114	0 0.0223 0	0 0 0
GGAAACCGUUAUUAC	0.160	0.311 0.321 0.457	0.0647 0.111 0.100	0 0 0
GGAAACCGCUUUCGC	0.192	0.0983 0.112 0.171	0 0 0.0601	0 0 0
GGAAACCGGUCCGCC	0.288	0.0819 0.145 0.133	0 0.0223 0	0 0 0
GGAAACCGGGAAGAC	0.272	0.0819 0.145 0.133	0.0162 0 0.0401	0 0 0
GGAAACCGACAGCGC	0.240	0.115 0.112 0.0952	0.0323 0 0.0200	0 0 0
GGAAACCGCUCUGUC	0.176	0.147 0.273 0.171	0.0323 0 0	0.0161 0 0
GGAAACCGACCAGGC	0.288	0.0983 0.112 0.133	0 0 0	0 0 0
GGAAACCGCACUCUC	0.240	0.180 0.305 0.114	0 0 0.0200	0.0161 0 0
GGAAACCGUAACCAC	0.256	0.278 0.241 0.495	0.0808 0.0668 0.140	0.0805 0.0454 0
GGAAACCGGGUCCUC	0.304	0.115 0.145 0.152	0.0162 0.0445 0	0.0161 0 0
GGAAACCGUGCUCGC	0.160	0.115 0.129 0.133	0 0.0223 0	0 0 0
GGAAACCGAUCUGAC	0.240	0.115 0.0803 0.0952	0 0.0223 0	0 0 0
GGAAACCGGGUGAAC	0.256	0.0491 0.0643 0.133	0 0 0.0200	0 0 0
GGAAACCGAAGCGCC	0.0960	0.0983 0.0161 0.133	0 0 0	0 0 0
GGAAACCGACCAAAC	0.256	0.0491 0.161 0.133	0.0162 0.0223 0	0.0161 0 0
GGAAACCGGAACCGC	0.240	0.0819 0.0482 0.0952	0 0.0223 0	0 0 0
GGAAACCGAAUGUUC	0.256	0.459 0.337 0.228	0.243 0.0445 0.140	0.0483 0 0
GGAAACCGUAUAGAC	0.288	0.115 0.0643 0.171	0.0323 0 0.0200	0.0161 0 0
GGAAACCGUAGCUUC	0.272	0.311 0.289 0.324	0.178 0.156 0.140	0.0161 0 0
GGAAACCGCGGGUUC	0.224	0.115 0.257 0.324	0.0647 0.0891 0.220	0.0161 0.0303 0.0684
GGAAACCGGGGCUCC	0.224	0.0491 0.0482 0.171	0 0 0	0.0161 0 0
GGAAACCGUUAAAUC	0.240	0.377 0.273 0.343	0.0808 0.0891 0.240	0.0483 0.0908 0.160
GGAAACCGAACUUGC	0.240	0.147 0.112 0.133	0 0 0.0601	0 0 0
GGAAACCGACCCGCC	0.224	0.0983 0.0482 0.0762	0.0323 0 0	0.0483 0 0
GGAAACCGCCUACCC	0.240	0.0655 0.0964 0.133	0.0162 0 0	0.0161 0 0
GGAAACCGCGAUUUC	0.304	0.262 0.418 0.286	0.129 0.0891 0.260	0.0161 0.0454 0.0684
GGAAACCGACCCUCC	0.176	0 0.0803 0.0952	0 0.0445 0	0 0 0
GGAAACCGCCUUGUC	0.272	0.0164 0.0964 0.0762	0.0162 0 0	0 0 0
GGAAACCGUCUGGCC	0.160	0.147 0.112 0.0952	0.0162 0.0223 0	0 0 0
GGAAACCGCUUGCUC	0.368	0.0983 0.0643 0.133	0 0.0223 0	0 0 0
GGAAACCGAUGUUCC	0.208	0.115 0.145 0.0381	0.0162 0.0223 0.0401	0 0 0
GGAAACCGUGCGUGC	0.176	0.541 0.369 0.438	0.0808 0.0223 0.180	0.0483 0.0303 0.0912
GGAAACCGUUUUCCC	0.288	0.131 0.0964 0.0571	0 0 0.0200	0 0 0
GGAAACCGAUCCUCC	0.272	0.147 0.193 0.171	0 0 0	0.0161 0 0
GGAAACCGGAGAUAC	0.240	0.0983 0.0803 0.0381	0 0.0445 0.0200	0 0 0
GGAAACCGCACGUUC	0.256	0.508 0.450 0.400	0.0970 0 0.200	0.113 0.0454 0.0228
GGAAACCGGUCAUCC	0.240	0.147 0.0803 0.133	0 0 0	0 0 0
GGAAACCGCGUAUAC	0.192	0.180 0.386 0.457	0.129 0.0223 0.260	0.0322 0 0
GGAAACCGUGAAACC	0.176	0.0983 0.112 0.0952	0 0.0668 0	0 0 0
GGAAACCGGACGCGC	0.336	0.0491 0.0964 0.114	0 0 0.0200	0 0 0
GGAAACCGGGAGCCC	0.240	0.147 0.112 0.114	0 0.0223 0	0.0161 0 0
GGAAACCGCUCACAC	0.256	0.180 0.193 0.0952	0 0.0445 0.0200	0 0 0
GGAAACCGCAGUAAC	0.176	0.0983 0.0643 0.114	0 0 0.0601	0 0 0.0228
GGAAACCGCAGGUCC	0.160	0.147 0.225 0.190	0 0 0	0.0161 0 0
GGAAACCGCCGCGUC	0.256	0.115 0.177 0.0571	0.0162 0 0	0 0 0
GGAAACCGGAGGUAC	0.224	0.278 0.321 0.228	0.113 0.134 0.0801	0.0483 0 0
GGAAACCGCUUACGC	0.160	0.0983 0.0964 0.190	0 0 0.0401	0 0 0
GGAAACCGGGUUGAC	0.240	0.180 0.145 0.133	0 0.0223 0.0200	0 0 0
GGAAACCGCAGGGUC	0.256	0.0655 0.0643 0.114	0.0162 0 0	0 0 0
GGAAACCGUGACCUC	0.240	0.393 0.257 0.438	0.0485 0.0668 0.260	0.0322 0 0

The last 3 entries again:

GGAAACCGGGUUGAC (pool 0.240): inoculated region 0.180 0.145 0.133; leaf margin 0 0.0223 0.0200; systemic leaves 0 0 0.
GGAAACCGCAGGGUC (pool 0.256): inoculated region 0.0655 0.0643 0.114; leaf margin 0.0162 0 0; systemic leaves 0 0 0.
GGAAACCGUGACCUC (pool 0.240): inoculated region 0.393 0.257 0.438; leaf margin 0.0485 0.0668 0.260; systemic leaves 0.0322 0 0.

With 43,870-66,106 reads a sample, very low values are single reads.
The authors trace changes outside the varied positions to PCR and sequencing errors or to mutation in the plant; presence does not show that a variant is infectious alone.
For reference, wild type rose from 33.9 per thousand in the pool to 202, 200, 159 (inoculated region), 724, 746, 710 (leaf margin) and 856, 883, 880 (systemic leaves).

Source: Wu et al. 2024 (doi:10.1371/journal.ppat.1012142), supplementary data.